From US7345026B2, “Hybrid or chimeric polynucleotides, proteins, and compositions comprising hepatitis B virus sequences” (Institut Pasteur, priority 1999, dated 2008)
“Also recorded” adds a separate entry of the source.

Tests used:
Parameters in all cases: species or system HHD mice
[1] = system: HHD-transfected RMA-S cells loaded with relevant peptides; conditions: in vivo
[2] = system: HHD-transfected RMA-S target cells loaded with relevant peptides; conditions: mouse, in vivo
[3] = system: peptide-loaded HHD-transfected RMA-S cells; conditions: mouse, in vivo

AAGIGILTV [Melan-A/MART-1.27]
lysis in % (maximal lysis observed for each responder mouse) ([1]; sc): (15, 19) % | CTL inducer hierarchy (in words) ([1]; mouse): weak | CTL response when co-injected with helper peptide (in words) [2]: strong CTL-inducers when associated with a helper peptide | lysis in % [2]: (10, 19, 20, 30) % | CTL response against the epitope after polyepitope immunization (in words) [3]: did not elicit CTL responses; also recorded: Significant responses
